Target: wild-type ypFabV (Yersinia pestis, UniProt Q8Z9U1)
Assay type: biochemical

Chains of the proteins cited; added tags and fusions are not shown. Lines headed by an entry give the natural chain unless they say otherwise; changes in a name come on top.
UniProt Q8Z9U1: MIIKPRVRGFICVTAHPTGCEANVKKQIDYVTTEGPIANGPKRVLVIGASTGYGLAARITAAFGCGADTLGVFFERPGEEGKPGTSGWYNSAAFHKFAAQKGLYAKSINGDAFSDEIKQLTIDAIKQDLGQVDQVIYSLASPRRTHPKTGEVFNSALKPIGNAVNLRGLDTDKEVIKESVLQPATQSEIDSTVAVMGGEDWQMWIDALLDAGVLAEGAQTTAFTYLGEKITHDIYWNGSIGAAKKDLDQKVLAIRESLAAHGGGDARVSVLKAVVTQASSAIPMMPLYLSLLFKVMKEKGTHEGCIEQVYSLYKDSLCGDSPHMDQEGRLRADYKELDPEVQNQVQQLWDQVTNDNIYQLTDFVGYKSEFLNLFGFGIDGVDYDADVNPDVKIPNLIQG

trans-2-octenoyl-ecACP
kcat, wild-type ypFabV: 14.9 ± 2.08 s⁻¹
kcat/KM relative to octenoyl-CoA: 75 fold
Km (read-out: KM, wild-type ypFabV): 6 ± 2 µM
